Data source: PubChem BioAssay AID504761 (Drosophila RNAi Screening Center, 2011)

Purpose: 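Fly genes whose silencing reduces dengue virus type 2 infection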 (primary screen)
System: D.Mel-2 cells from Drosophila
Reagent: long dsRNA against Drosophila genes
Challenge: infection with dengue virus type 2; dose and infection time not stated
Read-out: 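Cells stained for dengue envelope protein and imaged; percent of infected cells per well on duplicate plates, ranked by infection, with stained nuclei counted for cell number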
Scale: infection score: higher = more virus-infected cells; cell count: higher = more cells in the well
Call rule: 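Very low infection ranking in both replicate wells (chance probability at most 0.065), then a retest showing infection dropped 1.5-fold or more at p below 0.05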
Meaning of the calls: active = confirmed: knock-down lowers infection; inactive = not picked or not confirmed
The deposit covers about 22,000 reagents; this is a random part of those with a known target gene and a result. In the full data, 116 (0.52%) were called active. 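Calls depend on retest data that are not deposited; infection was ranked per plate without normalising between plates; the unit of the infection score is not given.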 Raw values vary from plate to plate and are shown uncorrected. A number with no mark means an inactive call. Not all columns of the deposit are shown. Not given: the amount of reagent, the time to read-out.

Dp1 [DRSC07403] — infection score, replicate 1 = 4.21; cell count, replicate 1 = 6080
Mgtor [DRSC05958] — infection score, replicate 1 = 13.5; cell count, replicate 1 = 2970
Dus1 [DRSC00623] — infection score, replicate 1 = 3.52; cell count, replicate 1 = 6757
nompA [DRSC06329] — cell count, replicate 1 = 365
slp1 [DRSC00835] — infection score, replicate 1 = 0.63; cell count, replicate 1 = 6644
slp1 [DRSC24204] — infection score, replicate 1 = 0.82; cell count, replicate 1 = 6220
CG7220 [DRSC05235] — infection score, replicate 1 = 1.13; cell count, replicate 1 = 6193
CG7220 [DRSC07018] — infection score, replicate 1 = 8.46; cell count, replicate 1 = 6947
CG7220 [DRSC26138] — infection score, replicate 1 = 4.79; cell count, replicate 1 = 6577
Opbp [DRSC04966] — infection score, replicate 1 = 8.89; cell count, replicate 1 = 6308
Opbp [DRSC28850] — infection score, replicate 1 = 12.9; cell count, replicate 1 = 3017
CG33007 (retired record) [DRSC21845] — infection score, replicate 1 = 6.58; cell count, replicate 1 = 6841
CG33007 (retired record) [DRSC28341] — infection score, replicate 1 = 10.2; cell count, replicate 1 = 3558
CG13198 [DRSC06323] — infection score, replicate 1 = 12.4; cell count, replicate 1 = 5488
Spn31A [DRSC02780] — infection score, replicate 1 = 2.34; cell count, replicate 1 = 7040
Spn31A [DRSC29198] — infection score, replicate 1 = 14.6; cell count, replicate 1 = 2452
CG7483 [DRSC16249] — infection score, replicate 1 = 5.46; cell count, replicate 1 = 6617
CG7483 [DRSC22432] — infection score, replicate 1 = 3.08; cell count, replicate 1 = 5429
CG7483 [DRSC26402] — infection score, replicate 1 = 2.2; cell count, replicate 1 = 6318
Mcm2 [DRSC16734] — infection score, replicate 1 = 4.78; cell count, replicate 1 = 5957
Mcm2 [DRSC26612] — infection score, replicate 1 = 2.17; cell count, replicate 1 = 5934
Tace [DRSC16340] — infection score, replicate 1 = 3.89; cell count, replicate 1 = 6266
CG7378 [DRSC20041] — infection score, replicate 1 = 1.5; cell count, replicate 1 = 6261
blanks [DRSC09757] — infection score, replicate 1 = 6.61; cell count, replicate 1 = 5828
CG5646 [DRSC15853] — infection score, replicate 1 = 4.17; cell count, replicate 1 = 6449
CG5646 [DRSC29759] — infection score, replicate 1 = 7.87; cell count, replicate 1 = 6631
Cad96Cb [DRSC14243] — infection score, replicate 1 = 3.83; cell count, replicate 1 = 7158
Cad96Cb [DRSC14665] — infection score, replicate 1 = 0.46; cell count, replicate 1 = 6589
Cad96Cb [DRSC28720] — infection score, replicate 1 = 12.5; cell count, replicate 1 = 1741

In a second layout: entries from further up.
{"Gene":"CG7220","DRSC id":"DRSC26138","infection score, replicate 1":4.79,"cell count, replicate 1":6577}
{"Gene":"Opbp","DRSC id":"DRSC04966","infection score, replicate 1":8.89,"cell count, replicate 1":6308}
{"Gene":"Opbp","DRSC id":"DRSC28850","infection score, replicate 1":12.9,"cell count, replicate 1":3017}
{"Gene":"CG33007 (retired record)","DRSC id":"DRSC21845","infection score, replicate 1":6.58,"cell count, replicate 1":6841}
{"Gene":"CG33007 (retired record)","DRSC id":"DRSC28341","infection score, replicate 1":10.2,"cell count, replicate 1":3558}
